Measurements from paper PMC4766503, “A novel peptide with potent and broad-spectrum antiviral activities against multiple respiratory viruses” (Scientific Reports, 2016).

Experiments:
[1] = test system: MDCK cells; settings: 24 h
[2] = test system: H1N1 virus; settings: 1 h

Q: What does the source list for `CC[C@H](C)[C@H](N)C(=O)N[C@H](C(=O)N[C@@H](CC(N)=O)C(=O)N[C@@H](CC(N)=O)C(=O)N1CCC[C@H]1C(=O)N[C@H](C(=O)N[C@H](C(=O)N[C@H]1CSSC[C@@H]2NC(=O)[C@H](CCCNC(=N)N)NC(=O)[C@H](C(C)C)NC(=O)[C@H](CCCCN)NC(=O)[C@H](Cc3ccccc3)NC(=O)[C@H](Cc3c[nH]cn3)NC(=O)CNC(=O)[C@@H]3CSSC[C@H](NC(=O)[C@H]([C@@H](C)CC)NC(=O)[C@H](C)NC(=O)CNC(=O)[C@H](CC(N)=O)NC(=O)[C@H]([C@@H](C)O)NC(=O)[C@H](CCSC)NC1=O)C(=O)N[C@@H](Cc1c[nH]c4ccccc14)C(=O)NCC(=O)N1CCC[C@H]1C(=O)N[C@@H](CSSC[C@@H](C(=O)N[C@@H](CCCCN)C(=O)N[C@H](C(=O)N[C@@H](CCCNC(=N)N)C(=O)O)[C@@H](C)CC)NC2=O)C(=O)N1CCC[C@H]1C(=O)N[C@@H]([C@@H](C)O)C(=O)N[C@@H](C)C(=O)N[C@@H](Cc1ccccc1)C(=O)N[C@@H](CCCNC(=N)N)C(=O)N[C@@H](CCC(N)=O)C(=O)N[C@@H]([C@@H](C)CC)C(=O)NCC(=O)N[C@@H](CC(N)=O)C(=O)N3)[C@@H](C)O)[C@@H](C)CC)[C@@H](C)CC` [smBD4, reference compound]?
A: 50% toxic concentration (TC50) [1]: 280 µg/mL; 50% inhibitory concentration (IC50) against H1N1 [2]: 3.2 µg/mL
